Pooled drug test results. Numbers come from NIAID ChemDB, via PubChem.

Common to all: growth or infection tests; agent: HIV-1; cell line: MT-4; endpoint: EC50

ECn is the concentration giving n% inhibition of infection, replication or growth. Two numbers with a dash give a range or band. Neighbouring rows are from separate reports. Blank or dashed fields: not listed here.

smiles	strain or isolate	mutations	method	value
Nc1ncnc2c1ncn2C=C1CC1CO	IIIB		cytopathic effect / MTT	26 µM
CCCN(C)C(=O)Oc1nsnc1-c1c(Cl)ccc(C(=O)O)c1Cl	IIIB		cytopathic effect / MTT	>256 µM
Nc1nc(N)c2ncn([C@H]3CC[C@@H](CO)O3)c2n1	IIIB			14 µM
CC(C)=CCC/C(C)=C/CC/C(C)=C/CC/C(C)=C/Cc1cc(O)cc2c1OC(=O)C2	IIIB		MTT	30.66 µM
O=C1CSC(c2c(F)cccc2Cl)N1Cc1ccco1	IIIB	RT	cytopathic effect	0.576 µM
c1ccc(Cc2nnc3n2-c2ccccc2-n2c(Cc4ccccc4)nnc2C3)cc1	IIIB		cytopathic effect / MTT	>58 µM
O=C1CSC(c2c(F)cccc2F)N1Cc1ccco1	IIIB	RT	cytopathic effect	2.88 µM
CC(C)c1s/c(=N\S(=O)(=O)c2cccc([N+](=O)[O-])c2)n(C)c1C#N	IIIB		cytopathic effect / MTT	0.71 µM
CC(C)(C)NC(=O)[C@@H]1CN(C(=O)c2cc3ccccc3oc2=O)CCN1C[C@@H](O)C[C@@H](Cc1ccccc1)C(=O)N[C@H]1c2ccccc2C[C@H]1O	IIIB		p24	<0.05 µM
O=C1CSC(c2ccnc3ccccc23)N1Cc1ccco1	IIIB		cytopathic effect	66.05 µM
CCc1c(Sc2cccc3ccccc23)nc(SCC(=O)c2ccc(F)cc2)[nH]c1=O	IIIB		cytopathic effect / MTT	3.33 µM
NC(N)=NCCC[C@H](NC(=O)[C@@H](N)Cc1ccc2ccccc2c1)C(=O)c1ccc(CNC(=O)c2ccc(C(F)(F)F)cc2)cc1			cytopathic effect	6 µM
Nc1ncnc2c1ncn2C=C=CCO	IIIB		cytopathic effect	5.8 µM
NC(N)=NCCC[C@H](N)C(=O)NC[C@H]1O[C@H](O[C@H]2C(O)[C@@H](O[C@H]3O[C@H](CO)[C@@H](O)[C@H](NC(=O)[C@@H](N)CCCN=C(N)N)[C@H]3O)[C@H](NC(=O)[C@@H](N)CCCN=C(N)N)C[C@@H]2NC(=O)[C@@H](N)CCCN=C(N)N)[C@H](O)[C@@H](O)[C@@H]1O	NL4-3			30 µM
CCCN(C)C(=O)Oc1nsnc1-c1c(Cl)ccc(C#N)c1Cl	IIIB		cytopathic effect / MTT	0.0073 µM
Cc1nc(S(=O)(=O)N2CCN(C[C@@H](O)C[C@@H](Cc3ccccc3)C(=O)N[C@H]3c4ccccc4C[C@H]3O)[C@H](C(=O)NC(C)(C)C)C2)c(C)s1	IIIB		p24	<0.2 µM
CCCCCCCCCCCCCCCCCC(=O)N[C@@H](CO[C@@H]1O[C@H](CO)C(OS(=O)(=O)O)[C@H](OS(=O)(=O)O)[C@H]1NC(C)=O)C(=O)NCCCCCCCCCCCCCC			antigen	30–100 µM
C[C@@H](N[C@@H](CCCN=C(N)N)C(=O)c1ccc(CNC(=O)c2ccc(C(F)(F)F)cc2)cc1)c1cccc2ccccc12			cytopathic effect	7.4 µM
CC1c2nnc(-c3ccc(Cl)cc3)n2-c2ccccc2-n2c(-c3ccc(Cl)cc3)nnc21	IIIB		cytopathic effect / MTT	>12 µM
CCc1c(Sc2cccc3ccccc23)nc(SCC(=O)c2ccc(F)cc2F)[nH]c1=O	IIIB		cytopathic effect / MTT	0.38 µM
Nc1ncnc2c1ncn2/C=C1/C[C@@H]1CO	IIIB		cytopathic effect / MTT	50 µM
COC(O)c1cc(O)c(O)c(O)c1	IIIB		MTT	3.95 µM
O=c1[nH]cnc2c1ncn2[C@H]1CC[C@@H](CO)O1	IIIB		cytopathic effect / MTT	5.37 µM
C=C(C)[C@@H]1CC[C@]2(CCO)CC[C@]3(C)C(CCC4[C@@]5(C)CC/C(=C\O)C(C)(C)C5CC[C@]43C)C12	IIIB		MTT	151 µM
C[C@H](NC(=O)[C@H](CCCN=C(N)N)NC[C@H](CCCN=C(N)N)NC(=O)[C@@H](N)Cc1ccc(O)cc1)c1cccc2ccccc12			cytopathic effect	26 µM
c1ccc2c(c1)-n1c(nnc1-c1ccncc1)Cc1nnc(-c3ccncc3)n1-2	IIIB		cytopathic effect / MTT	>200 µM
Cc1ccc(C(=O)N[C@H](C(=O)NCCCC[C@@H](CO)N(CC(C)C)S(=O)(=O)c2ccc(N)cc2)C(c2ccccc2)c2ccccc2)cn1	4596 PR-M46I V82T I84V L10R L63P	PR-M46I V82T I84V L10R L63P	cytopathic effect / MTT	0.034 µM
CC(=O)SCCOP(=O)(OCCSC(C)=O)OC[C@@H]1CC[C@H](n2cnc3c(=O)[nH]cnc32)O1	LAI		RT activity	3.4 µM
c1ccc(-c2nnc3n2-c2ccccc2-n2c(nnc2-c2ccccc2)C3)cc1	IIIB		cytopathic effect / MTT	>12 µM
CC(C)=CCN1Cc2cc(Cl)cc3[nH]c(=S)n(c23)C[C@@H]1C		RT-D67N K70R T215Y K219Q A98G		<3 µM
COc1cc(OC)c(C2SCC(=O)N2c2cccc(C)n2)c(OC)c1	IIIB	RT	cytopathic effect	25.94 µM
Cc1cn([C@H]2C[C@H](N=[N+]=[N-])[C@@H](CO)O2)c(=O)[nH]c1=O	IIIB		cytopathic effect / MTT	0.0024 µM
CN(C)C=C1c2nnc(-c3ccccc3)n2-c2ccccc2-n2c1nnc2-c1ccccc1	IIIB		cytopathic effect / MTT	>133 µM
C[C@H](NC(=O)[C@H](CCCN=C(N)N)NC(=O)[C@@H](N)CCCN=C(N)N)c1cccc2ccccc12			cytopathic effect	>100 µM
Cc1cc(O)cc(O)c1	IIIB		MTT	22.17 µM
CCCN(C)C(=O)Oc1nsnc1-c1c(Cl)ccc(N)c1Cl	IIIB		cytopathic effect / MTT	0.006 µM
CC(C)Cc1c(C(C)C)s/c(=N\S(=O)(=O)c2cccc([N+](=O)[O-])c2)n1C	IIIB		cytopathic effect / MTT	>21.4 µM
CC(=O)c1ccc(C)cc1NC(C(N)=O)c1c(Cl)cccc1Cl	HE/NEV(RT-Y181C)	RT-Y181C	p24	>137 µM
CC(=O)SCCOP(=O)(OCCSC(C)=O)OC[C@H]1O[C@@H](n2cc(C)c(=O)[nH]c2=O)C[C@@H]1N=[N+]=[N-]	LAI		RT activity	0.078 µM
Cc1nc(NS(=O)(=O)c2cccc([N+](=O)[O-])c2)sc1C(C)(C)C	IIIB		cytopathic effect / MTT	0.5 µM
Cc1nc(N2C(=O)CSC2c2c(F)cccc2Cl)ccc1Br	IIIB	RT	cytopathic effect	0.95 µM
CC(C)(C)NC(=O)[C@@H]1CNCCN1C[C@@H](O)C[C@@H](Cc1ccccc1)C(=O)N[C@H]1c2ccccc2C[C@H]1O	IIIB		p24	<3 µM
CC1c2nnc(-c3ccccc3)n2-c2ccc(C(F)(F)F)cc2-n2c(-c3ccccc3)nnc21	IIIB		cytopathic effect / MTT	>137 µM
CC(=O)[C@]12CCC(C)(C)C=C1C1=CCC3[C@@]4(C)CCC(=O)C(C)(C)C4CC[C@@]3(C)[C@]1(C)CC2	IIIB		MTT	37.62 µM
CC(=O)SCCOP(=O)(OCCSC(C)=O)OC[C@@H]1CC[C@H](n2ccc(=O)[nH]c2=O)O1	LAI		RT activity	2 µM
O=C1N(c2ccncc2)[C@H](Cc2ccccc2)[C@H](O)CN(Cc2ccccc2)N1c1ccncc1	IIIB		cytopathic effect / MTT	5.8 µM
CC(C)(C)C(=O)SCCOP(=O)(OCCSC(=O)C(C)(C)C)OCC1(Cc2c[nH]c3c(N)ncnc23)CCC1				26.5 µM
Cc1nnc2n1-c1ccccc1-n1c(C)nnc1C2	IIIB		cytopathic effect / MTT	>200 µM
C=Cc1s/c(=N\S(=O)(=O)c2cccc([N+](=O)[O-])c2)n(C)c1C	IIIB		cytopathic effect / MTT	0.097 µM
CC(C)(C)NC(=O)[C@@H]1CN(S(C)(=O)=O)CCN1C[C@@H](O)C[C@@H](Cc1ccccc1)C(=O)N[C@H]1c2ccccc2C[C@H]1O	IIIB		p24	<0.4 µM
Cc1ccnc2c1NC(=O)c1cccnc1N2C1CC1	IIIB	RT	cytopathic effect	0.048 µM
Nc1ncc(CC2(CO)CCC2)c(=O)[nH]1				>100 µM
CC(C)[C@@H](C(=O)N[C@@H](Cc1ccccc1)C[C@H](O)[C@H](Cc1ccccc1)NC(=O)OCc1cncs1)N1CCCNC1=O			cytopathic effect / MTT	0.015 µM
COc1ccc(/C=C/C(=O)O)cc1OC	IIIB		MTT	17.81 µM
CC(C)(C)C(=O)SCCOP(=O)(OCCSC(=O)C(C)(C)C)OCC1(Cc2cnc(N)[nH]c2=O)CCC1				61.3 µM
COC(=O)N[C@@H](Cc1ccccc1)C(=O)NCCCC[C@@H](CO)N(CC(C)C)S(=O)(=O)c1ccc(N)cc1	NL4-3		cytopathic effect / MTT	2 µM

The last 4 rows once more:

| smiles | strain or isolate | mutations | method | value |
|---|---|---|---|---|
| CC(C)[C@@H](C(=O)N[C@@H](Cc1ccccc1)C[C@H](O)[C@H](Cc1ccccc1)NC(=O)OCc1cncs1)N1CCCNC1=O |  |  | cytopathic effect / MTT | 0.015 µM |
| COc1ccc(/C=C/C(=O)O)cc1OC | IIIB |  | MTT | 17.81 µM |
| CC(C)(C)C(=O)SCCOP(=O)(OCCSC(=O)C(C)(C)C)OCC1(Cc2cnc(N)[nH]c2=O)CCC1 |  |  |  | 61.3 µM |
| COC(=O)N[C@@H](Cc1ccccc1)C(=O)NCCCC[C@@H](CO)N(CC(C)C)S(=O)(=O)c1ccc(N)cc1 | NL4-3 |  | cytopathic effect / MTT | 2 µM |